Pooled drug test results. Numbers come from NIAID ChemDB, via PubChem.

Common to all: whole-cell or culture tests; species: HIV-1

ECn: concentration that inhibits the pathogen or its effect by n%.

smiles | cells | strain | mutations | method | measure | conditions | result
O=c1[nH]cnc2c1ncn2[C@H]1CC[C@@H](CO)O1 | MT-4 | 126 WT |  | p24 | EC50 |  | 22 µM
CC(C)(C)NC(=O)[C@@H]1CN(C(C)(C)c2cc3cnccc3o2)CCN1C[C@@H](O)C[C@@H](Cc1ccccc1)C(=O)N[C@H]1c2ccccc2C[C@H]1O |  | V-18C(PR-L10I M36I S37D M46I R57K LK63P A71V G73S I84V L90M I93L) | PR-L10I M36I S37D M46I R57K LK63P A71V G73S I84V L90M I93L |  | EC95 |  | >1 µM
N#Cc1ccc(Nc2nc(Oc3c(Br)cc(Br)cc3Br)ncc2N)cc1 | MT-4 | IIIB |  | MTT | EC50 |  | 0.05 µM
O=C1CCN(CCOc2ccc(Cl)cc2C(=O)c2cc(Cl)cc(Cl)c2)C(=O)N1 |  |  | K103N + Y181C | RT activity | EC50 | pseudotyped | 4.5 µM
CCn1cc(C(=O)O)c(=O)c2cc3c(cc21)OCO3 | HuT-78 + HUT 78 |  |  | antigen | EC50 |  | >177 µg/mL
Cn1ncc2c1S(=O)(=O)N(Cc1cccc(Cl)c1)C(=O)N2CC#N | MT-4 | IIIB |  | cytopathic effect / MTT | EC50 |  | 45.6 µM
CNc1ccc(Cl)cc1S(=O)(=O)c1ccccc1 | CEM + CEM-SS | IIIB |  | XTT | EC50 |  | 6 µM
Cc1ccnc2c1NC(=O)c1cccnc1N2C1CC1 |  |  | V106A | RT activity | EC50 | pseudotyped | >10 µM
Cc1cn([C@H]2C[C@H](N=[N+]=[N-])[C@@H](CN3C(=O)c4cc(Cl)c(Cl)cc4C3=O)O2)c(=O)[nH]c1=O | CEM | IIIB |  | syncytia | EC50 |  | 5.8 µM
Cc1cc(C=O)cc(C)c1Oc1ncc([N+](=O)[O-])c(Nc2ccc(C#N)cc2)n1 | MT-4 | RES056 |  | MTT | EC50 |  | >37.18 µM
CC(C)(C)NC(=O)[C@@H]1CN(Cc2cc3cnccc3o2)CCN1C[C@@H](O)C[C@@H](Cc1ccccc1)C(=O)N[C@H]1c2ccccc2C[C@H]1O | MT-4 | NL4-3 |  |  | EC50 |  | <0.015 µM
N#CCN1C(=O)N(Cc2cccc(F)c2)S(=O)(=O)c2cscc21 | MT-4 | IIIB |  | cytopathic effect / MTT | EC50 |  | 0.09 µM
Cc1cn([C@H]2C[C@H](N=[N+]=[N-])[C@@H](CO)O2)c(=O)[nH]c1=O | MT-2 | IIIB | 8374-P36 GS-8374-resistant | ATP | EC50 |  | 0.138 µM
Cc1cc(Br)cc(C)c1Oc1ncc(N)c(Nc2ccc(C#N)cc2)n1 | MT-4 | IIIB |  | MTT | EC50 |  | 0.0463 µM
CCN(c1nc(F)ccc1NC(C)(C)C)C1CCN(C(=O)c2cc3cc(NC(=O)N4CCN(C)CC4)ccc3[nH]2)CC1 | MT-2 | IIIB | K112M K113E V128I | p24 / ELISA | EC50 |  | 0.0261 µM
O=C1CCCN1CCCN1CC(=O)N2CC(N(CCOc3ccccc3)S(=O)(=O)c3cccc(F)c3)C[C@H]2C1=O | TZM-bl | PLAI-JRFL PID2-28B |  | luciferase | EC50 |  | >30 µM
CNc1ccc(Cl)cc1S(=O)(=O)c1ccccc1[N+](=O)[O-] | MAC | BaL |  | XTT | EC50 |  | 0.3 µM
CC(=O)N1CCC(C(=O)N(CCCN2CCC(Cc3ccc(C(N)=O)cc3)CC2)c2ccc(C)c(Cl)c2)CC1 | U87 (CD4+ CCR5+) + U87 | R5 subtype C_1 recombinant |  | luciferase | EC50 |  | 0.014 µM
Nc1nc(N)c2ncn(CC(CF)OCP(=O)(O)O)c2n1 | Macrophage + Monocytes/macrophages | BaL |  |  | EC50 |  | 0.2 µM
CCn1cc(C(=O)O)c(=O)c2ccc(C)nc21 | MT-4 |  |  | cytopathic effect / MTT | EC50 |  | >250 µg/mL
Cc1cn([C@H]2C[C@H](N=[N+]=[N-])[C@@H](CO)O2)c(=O)[nH]c1=O | CEM | IIIB |  | syncytia | EC50 |  | 0.006 µM
Cc1cn([C@H]2C[C@H](N=[N+]=[N-])[C@@H](CO)O2)c(=O)[nH]c1=O | C8166 | CBL-1 |  | cytopathic effect | EC50 |  | <0.1 µg/mL
Cn1ncc2c1S(=O)(=O)N(Cc1cccc(Cl)c1)C(=O)N2Cc1ccccc1C#N | MT-4 | IIIB |  | cytopathic effect / MTT | EC50 |  | >283.1 µM
Cc1cn([C@H]2C[C@H](N=[N+]=[N-])[C@@H](CO)O2)c(=O)[nH]c1=O | MT-2 | RF |  |  | EC90 |  | 0.015–0.38 µg/mL
Cc1cc(C=O)cc(C)c1Oc1ncc(N)c(Nc2ccc(C#N)cc2)n1 | MT-4 | IIIB |  | MTT | EC50 |  | 0.066 µM
Cn1ncc2c1S(=O)(=O)N(Cc1cccc(Cl)c1)C(=O)N2Cc1ccc(F)cc1 | MT-4 | IIIB |  | cytopathic effect / MTT | EC50 |  | >208.9 µM
CC1c2nnc(-c3ccccc3)n2-c2ccccc2-n2c(-c3ccccc3)nnc21 | MT-4 | IIIB |  | cytopathic effect / MTT | EC50 |  | >4 µM
Cc1cn([C@H]2C[C@H](N=[N+]=[N-])[C@@H](CN3C(=O)c4c(F)c(F)c(F)c(F)c4C3=O)O2)c(=O)[nH]c1=O | CEM | IIIB |  | syncytia | EC50 |  | 2.3 µM
Nc1nc(N)c2ncn(CCOCP(=O)(O)O)c2n1 | PBL | IIIB |  |  | EC50 |  | 0.94 µM
C[C@@H]1O[C@@H](OC[C@H]2O[C@@H](Oc3c(-c4ccc(OS(=O)(=O)O)c(OS(=O)(=O)O)c4)oc4cc(OS(=O)(=O)O)cc(OS(=O)(=O)O)c4c3=O)[C@H](OS(=O)(=O)O)[C@@H](OS(=O)(=O)O)[C@@H]2OS(=O)(=O)O)[C@H](OS(=O)(=O)O)[C@H](OS(=O)(=O)O)[C@H]1OS(=O)(=O)O | PBMC | R5 primary isolate |  | p24 | EC50 |  | 13.1 µM
Cc1ccnc2c1NC(=O)c1cccnc1N2C1CC1 | MT-4 | IIIB |  | cytopathic effect / MTT | EC50 |  | 0.05 µM
Cc1cn([C@H]2C[C@H](N=[N+]=[N-])[C@@H](CO)O2)c(=O)[nH]c1=O | MT-2 | HII2-1 |  | RT activity | EC50 |  | 0.03 µM
COC(=O)N[C@H](C(=O)N[C@@H](Cc1ccccc1)[C@@H](O)CN(Cc1ccc(-c2ccccn2)cc1)NC(=O)[C@@H](NC(=O)OC)C(C)(C)C)C(C)(C)C | MT-2 | IIIB | I401T R409K D437N | p24 / ELISA | EC50 |  | 0.0023 µM
Cc1cn([C@H]2C[C@H](N=[N+]=[N-])[C@@H](CO)O2)c(=O)[nH]c1=O | PBMC | TEKI (non-syncytium-inducing) |  | cytopathic effect / XTT | EC50 |  | 0.03 µM
COc1cccc(-c2nnc3n2-c2ccccc2-n2c(-c4cccc(OC)c4)nnc2C3C)c1 | MT-4 | IIIB |  | cytopathic effect / MTT | EC50 |  | >200 µM
Cc1cn([C@H]2C[C@H](N=[N+]=[N-])[C@@H](CN3C(=O)c4cccc([N+](=O)[O-])c4C3=O)O2)c(=O)[nH]c1=O | CEM | IIIB |  | syncytia | EC50 |  | 6.8 µM
CN1N=C(N)c2cn([C@@H]3O[C@H](COP(=O)(O)O)[C@@H](O)[C@H]3O)c3ncnc1c23 | CEM + CEM-SS | 205 |  | XTT | EC50 |  | >2.8 µM
CC1c2nnc(-c3ccncc3)n2-c2ccccc2-n2c(-c3ccncc3)nnc21 | MT-4 | IIIB |  | cytopathic effect / MTT | EC50 |  | >200 µM

5 of the rows above, restated:

smiles | cells | strain | mutations | method | measure | conditions | result
CNc1ccc(Cl)cc1S(=O)(=O)c1ccccc1 | CEM + CEM-SS | IIIB |  | XTT | EC50 |  | 6 µM
N#CCN1C(=O)N(Cc2cccc(F)c2)S(=O)(=O)c2cscc21 | MT-4 | IIIB |  | cytopathic effect / MTT | EC50 |  | 0.09 µM
Cn1ncc2c1S(=O)(=O)N(Cc1cccc(Cl)c1)C(=O)N2Cc1ccccc1C#N | MT-4 | IIIB |  | cytopathic effect / MTT | EC50 |  | >283.1 µM
Cc1cn([C@H]2C[C@H](N=[N+]=[N-])[C@@H](CN3C(=O)c4cccc([N+](=O)[O-])c4C3=O)O2)c(=O)[nH]c1=O | CEM | IIIB |  | syncytia | EC50 |  | 6.8 µM
CCN(c1nc(F)ccc1NC(C)(C)C)C1CCN(C(=O)c2cc3cc(NC(=O)N4CCN(C)CC4)ccc3[nH]2)CC1 | MT-2 | IIIB | K112M K113E V128I | p24 / ELISA | EC50 |  | 0.0261 µM

Blank or dashed fields: not listed here. a–b is a range or a potency band. Lines come from different laboratories, so protocols vary.